The entries are a selection whose mix differs from that of the whole data set. Some salts and complexes are drawn in separate pieces, as the source files them; their charges need not balance. The source made the active and inactive calls. No stated cut-off is given here; in the data, active means activity change below about -50%; inconclusive means between about -30% and that limit; inactive means weaker than that.
Each compound was assayed against Mucolipin-1 (Homo sapiens) (UniProt Q9GZU1) (assay: qHTS for Inhibitors of the Human Mucolipin Transient Receptor Potential 1 (TRPML1)). Conditions: TRPML1-inducible cells, Ca2+ dye fluorescence, FDSS; hits give low values; inhibition of EC80 agonist-evoked calcium signal.
Description: Mutations of human Mucolipin transient receptor potential 1 (TRPML1) cause type IV mucolipidosis (ML4), a devastating neurodegenerative disease in young children. […] Currently, there is no treatment for ML4. […] Under physiological conditions, TRPMLs regulate membrane trafficking by transducing information about PI(3,5)P2 levels into changes in juxtaorganellar Ca2+, thereby triggering membrane fusion/fission events in the late endocytic pathways (endolysosomal trafficking). In addition, TRPML1 mediates release of Fe2+ from late endosomes and lysosomes, which is essential for cellular iron metabolism. Thus, impaired ion (Ca2+ and Fe2+) homeostasis underlies lysosomal dysfunction and ML4 phenotypes. In ML4 cells, the problem is twofold. First, defective Ca2+-dependent membrane trafficking due to TRPML1-deficiency causes accumulation of lipids and other bio-materials in the lysosome. The second strike comes from the lysosomal iron overload (due to impairment of TRPML1's Fe2+ conductivity), which converts the accumulated materials into the nondegradable (resistant to lysosomal degradation) lipofuscin (also called aging pigment) in the lysosome. Lipofuscin accumulation dramatically compromises the functions of lysosomes.
Niemann-Pick type C (NPC) disease is another lysosome storage disease (LSD) with severe neurodegeneration during the childhood. Currently, there is no cure for NPC. […] Thus, TRPML1 is likely to be an essential regulator of lysosome ion homeostasis. We specifically hypothesize that stimulating TRPML1's Fe2+/Ca2+ channel activity in the lysosome using synthetic agonists can alleviate neurodegeneration associated with ML4 or NPC.
To this end, a high throughput screen was developed in a miniaturized format to screen against the Molecular Libraries Small Molecule Repository (MLSMR) to find small molecules that act either as inhibitors or agonist against the TRPML1 channel.
NIH Chemical Genomics Center [NCGC]
NIH Molecular Libraries Probe Centers Network [MLPCN]
Assay Submitter (PI): Haoxing Xu, University of Michigan Ann Arbor
TRPML1-DL cells are dissociated from flasks, counted and, brought up to a density of 500,000 cells per mL of media containing a 1X Tet inducer. Using a Multidrop Combi, 3 uL of this cell solution is dispensed to each well of a 1536 TC treated, black, clear bottom hi base plate for a final cell density of 1,500 cells per well. The assay plates are incubated overnight (approximately 16 hours) at 37 degrees C and 5% CO2. Using a Multidrop Combi, 2 uL of ABD Ca8 no wash dye plus quencher is added to each well. The assay plates incubate at room temperature in the dark for 45-90 minutes. The assay plate is read on the FDSS using the following protocol: 10 second baseline read, 23 nL of compounds and controls are added using 1536 pintool, agonist read for 110 seconds, 1 uL EC80 addition (4 uM final 54-4 diluted in media), antagonist read for 110 seconds.
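Further: stimulus is agonist 54-4 at its EC80 concentration.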
On the % scale 0 is the no-effect control and ±100 the full control effect.

The chains behind the UniProt entries cited, without tags or fusion partners.
UniProt Q9GZU1, whole entry: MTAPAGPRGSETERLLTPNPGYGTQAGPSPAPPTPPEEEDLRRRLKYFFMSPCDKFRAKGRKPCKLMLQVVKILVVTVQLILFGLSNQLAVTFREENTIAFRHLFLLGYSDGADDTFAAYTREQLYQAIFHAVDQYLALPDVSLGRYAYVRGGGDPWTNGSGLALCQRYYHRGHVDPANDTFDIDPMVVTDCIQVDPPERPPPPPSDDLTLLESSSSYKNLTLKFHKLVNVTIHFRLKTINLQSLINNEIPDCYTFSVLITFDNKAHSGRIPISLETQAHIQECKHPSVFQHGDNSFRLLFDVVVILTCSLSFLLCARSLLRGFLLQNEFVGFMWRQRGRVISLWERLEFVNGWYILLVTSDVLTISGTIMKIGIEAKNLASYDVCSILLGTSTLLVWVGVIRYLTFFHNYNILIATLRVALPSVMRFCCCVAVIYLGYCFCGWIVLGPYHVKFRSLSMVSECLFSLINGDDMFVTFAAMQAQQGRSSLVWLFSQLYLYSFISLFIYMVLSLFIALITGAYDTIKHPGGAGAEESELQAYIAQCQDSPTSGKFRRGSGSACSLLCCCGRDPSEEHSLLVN

Structure (SMILES) | activity change, negative = inhibition
O=C(NCC1(N2CCOCC2)CCCCC1)c1ccc([N+](=O)[O-])cc1 | inactive: -3.01%
CC(C)(C)OC(=O)N1CCC(N(C(=O)c2ccccc2)c2ccc(Cl)cc2)CC1 | inactive: -6.12%
N#Cc1ccc(C(=O)NCC2(N3CCCCC3)CCCCC2)cc1 | inactive: 4.81%
O=C(NCC1(N2CCOCC2)CCCCC1)c1ccccc1[N+](=O)[O-] | inactive: -21.8%
CCOC(=O)C(CC)C1=NC(C)(C)Cc2ccccc21.O=[N+]([O-])c1cc([N+](=O)[O-])c(O)c([N+](=O)[O-])c1 (stereo not drawn) | inactive: 8.78%
c1ccc(CN2CCC(Nc3ccccc3)CC2)cc1 | inactive: 61.5%
O=C(NCC1(N2CCOCC2)CCCCC1)c1ccccc1 | inactive: -19.3%
Cc1cc(N(CCCl)CCCl)ccc1C=O | inactive: 19.7%
CCCN1CCC(Nc2cc(OC)cc(OC)c2)CC1 | inactive: 4.8%
CN(C)C1(CNC(=O)c2cccc(C#N)c2)CCCCC1 | inactive: -0.0534%
O=C(NCC1(N2CCOCC2)CCCCC1)c1cc(Br)ccc1Cl | inactive: -1.81%
COc1cc(C(=O)NCC2(N3CCOCC3)CCCCC2)cc(OC)c1C | inactive: 0.557%
COc1ccc(C(=O)NCC2(N3CCOCC3)CCCCC2)cc1OC | inactive: -21.1%
O=c1[nH]c2ccccc2n1C1CCN(C(c2ccnc3ccccc23)c2nnnn2C2CCCC2)CC1 (stereo not drawn) | inactive: -1.24%
O=c1[nH]c2ccccc2n1C1CCN(C(c2cccs2)c2nnnn2C2CCCCC2)CC1 (stereo not drawn) | inactive: 0.371%
N/C(=N\O)c1c(N)no[n+]1[O-] | inactive: 8.61%
COc1cccc(C(c2nnnn2C(C)(C)C)N2CCC(n3c(=O)[nH]c4ccccc43)CC2)c1OC (stereo not drawn) | inactive: 57.9%
CCOC(=O)N1CCC(Nc2ccc(C)cc2)CC1 | inactive: 0.119%
O=C(OC1CN2CCC1CC2)C1c2ccccc2C=Cc2ccccc21 (stereo not drawn) | inactive: 6.14%
CCc1cc(C(=O)NCC2(N3CCCCC3)CCCCC2)sc1C | inactive: -7.04%
O=C(O)c1cccc(Nc2c([N+](=O)[O-])cc([N+](=O)[O-])cc2[N+](=O)[O-])c1 | inactive: -3.66%
O=c1[nH]c2ccccc2n1C1CCN(C(c2cccs2)c2nnnn2C2CCCC2)CC1 (stereo not drawn) | inactive: -11%

Structure (SMILES) | activity change, negative = inhibition
CCOc1ncccc1C(=O)NCC1(N2CCOCC2)CCCCC1 | inactive: -9.57%
CN1CCC(Nc2ccc(F)c(Cl)c2)CC1 | inactive: 11.9%
CCCOc1ccc(C(=O)NCC2(N(C)C)CCCCC2)cc1 | inactive: -22.1%
CC(C)(C)OC(=O)N1CCC(Nc2ccccc2)CC1 | inactive: 6.66%
O=C(O)C1(Nc2ccccc2)CCN(Cc2ccccc2)CC1 | inactive: -2.86%
CCC(CO)(C(=O)OC1CN2CCC1CC2)c1ccccc1 (stereo not drawn) | inactive: 27.6%
COc1cc(OC)cc(C(=O)NCC2(N3CCOCC3)CCCCC2)c1 | inactive: -14.5%
COc1cc(C(=O)NCC2(N3CCOCC3)CCCCC2)cc(OC)c1OC | inactive: 2.12%
CN1CCC(Nc2ccc(Cl)cc2)CC1 | inactive: 2.49%
COc1cc(OC)cc(C(=O)NCC2(N3CCCCC3)CCCCC2)c1 | inactive: -19.1%
CC(=O)N(c1ccccc1)C1CCNCC1 | inactive: 11.3%
COc1cccc(C(c2nnnn2C2CCCCC2)N2CCC(n3c(=O)[nH]c4ccccc43)CC2)c1OC (stereo not drawn) | inactive: -2.28%
CN(C)C1(CNC(=O)c2ccc(C(C)(C)C)cc2)CCCCC1 | inactive: -22.7%
CCC(c1nnnn1C1CCCCC1)N1CCC(n2c(=O)[nH]c3ccccc32)CC1 (stereo not drawn) | inactive: 9.11%
Cc1ccc(NC2(C#N)CCN(Cc3ccccc3)CC2)cc1 | inactive: -2.42%
Cc1ccc(C(=O)NCC2(N3CCCCC3)CCCCC2)o1 | inactive: -2.58%
Cc1ccc(Nc2c([N+](=O)[O-])cc([N+](=O)[O-])cc2[N+](=O)[O-])cc1 | inactive: -0.321%
Fc1ccccc1NC1CCN(Cc2ccccc2)CC1 | inactive: 33.4%
Cc1ccccc1NC1(C#N)CCN(Cc2ccccc2)CC1 | inactive: -28.8%
CCN1CCC(Nc2cccc(F)c2)CC1 | inactive: 4.68%
CC(C)(C)c1ccc(C(=O)NCC2(N3CCOCC3)CCCCC2)cc1 | inactive: 20.8%
O=C(NCC1(N2CCCCC2)CCCCC1)c1ccco1 | inactive: 4.53%

Structure (SMILES) | activity change, negative = inhibition
Cn1c(=O)[nH]cc(N(CCCl)CCCl)c1=O | inactive: 1.22%
CN(C)c1ccc(C(=O)NCC2(N3CCCCC3)CCCCC2)cc1 | inactive: 2.98%
Cc1ccccc1C(=O)NCC1(N(C)C)CCCCC1 | inactive: 6.93%
CCOc1ccc(C)cc1CN(CCCl)CCCl | inactive: 2.63%
O=C(NCC1(N2CCOCC2)CCCCC1)c1ccc(Cl)cc1 | inactive: -8.29%
O=C(NCC1(N2CCCCC2)CCCCC1)c1ccc(F)cc1 | inactive: -13.2%
O=P1(N(CCCl)CCCl)SCCCS1 | inactive: -3.38%
CCCCOc1ccc(C(=O)NCC2(N3CCOCC3)CCCCC2)cc1 | inactive: -19.1%
COc1ccc(NC2CCN(CCc3ccccc3)CC2)c(OC)c1 | inactive: 26.5%
CCOC(=O)N1CCC(Nc2ccc(F)cc2)CC1 | inactive: 43.1%
COc1ccccc1C(=O)NCC1(N2CCOCC2)CCCCC1 | inactive: 2.76%
O=c1[nH]c2ccccc2n1C1CCN(C(c2ccccc2)c2nnnn2C2CCCCC2)CC1 (stereo not drawn) | inactive: -2.12%
COc1cc(C(=O)NCC2(N(C)C)CCCCC2)ccc1OC(F)F | inactive: -18.8%
CCOC(=O)N1CCC(Nc2cccc(C)c2)CC1 | inactive: -11.7%
O=C(NCC1(N2CCCCC2)CCCCC1)c1ccc(=O)[nH]c1 | inactive: 4.12%
O=C(NCC1(N2CCCCC2)CCCCC1)c1cccs1 | inactive: -15.9%
CCCCn1nnnc1C(CC)N1CCC(n2c(=O)[nH]c3ccccc32)CC1 (stereo not drawn) | inactive: 20.1%
COc1ccc(C(=O)NCC2(N3CCCCC3)CCCCC2)cc1 | inactive: 2.15%
CCC(c1nnnn1C1CCCC1)N1CCC(n2c(=O)[nH]c3ccccc32)CC1 (stereo not drawn) | inactive: -18.3%
CC(C)(C)OC(=O)N1CCC(N(C(=O)c2ccccc2)c2ccc(F)cc2)CC1 | inactive: 10.4%
COc1ccc(C(=O)NCC2(N3CCCCC3)CCCCC2)c(OC)c1OC | inactive: 16.4%
CSc1ccccc1C(=O)NCC1(N2CCCCC2)CCCCC1 | inactive: 13.6%

Structure (SMILES) | activity change, negative = inhibition
Cc1cccc(NC2(C#N)CCN(Cc3ccccc3)CC2)c1 | inactive: -12.1%
O=C(NCC1(N2CCOCC2)CCCCC1)c1cc2ccccc2o1 | inactive: -4.95%
O=c1[nH]c2ccccc2n1C1CCN(C(c2ccccc2OC(F)(F)F)c2nnnn2C2CCCCC2)CC1 (stereo not drawn) | inactive: 32.5%
O=C(NCC1(N2CCCCC2)CCCCC1)c1ccc(Cl)nc1 | inactive: 2.76%
Cc1cc(C)cc(N(C(=O)c2ccccc2)C2CCN(C(=O)OC(C)(C)C)CC2)c1 | inactive: 17.4%
CCOC(=O)N1CCC(Nc2ccc(OC)cc2)CC1 | inactive: -14.4%
O=C(OC1CN2CCC1CC2)C1c2ccccc2Oc2ccccc21 (stereo not drawn) | inactive: 4.99%
O=c1[nH]c2ccccc2n1C1CCN(C(c2cc3ccccc3o2)c2nnnn2C2CCCCC2)CC1 (stereo not drawn) | inactive: 19.8%
O=C(NCC1(N2CCCCC2)CCCCC1)c1ccc(Cl)s1 | inactive: -11.8%
O=C1C(O)=C([N+](=O)[O-])C(=O)C(O)=C1[N+](=O)[O-] | inactive: 16%
COc1ccc(Cl)cc1C(=O)NCC1(N2CCOCC2)CCCCC1 | inactive: -18%
COc1ccc(CN(CCCl)CCCl)cc1Cl | inactive: 25.9%
O=[N+]([O-])c1cc([N+](=O)[O-])c(OC2CCCCC2O)c([N+](=O)[O-])c1 (stereo not drawn) | inactive: 10.6%
CN(C)c1cccc(C(=O)NCC2(N3CCCCC3)CCCCC2)c1 | inactive: 1.78%
CC(C)c1ccc(NC2CCN(C(=O)OC(C)(C)C)CC2)cc1 | inactive: 8.75%
COc1cc(OC)c(C(=O)NCC2(N(C)C)CCCCC2)cc1OC | inactive: 19.3%
O=C(NCC1(N2CCOCC2)CCCCC1)c1cc(F)c(F)cc1Cl | inactive: 0.465%
CCC(c1nnnn1C(C)(C)C)N1CCC(n2c(=O)[nH]c3ccccc32)CC1 (stereo not drawn) | inactive: 3.87%
COc1ccc2c(c1O)-c1c(O)c(OC)cc3c1[C@H](C2)[N+](C)(C)CC3.O=[N+]([O-])c1cc([N+](=O)[O-])c([O-])c([N+](=O)[O-])c1[O-] | inactive: 2.93%
O=C(NCC1(N2CCCCC2)CCCCC1)c1cncc(Br)c1 | inactive: 2.01%
CN1CCC(Nc2cccc(F)c2)CC1 | inactive: 18%
O=C(OC1CN2CCC1CC2)c1ccc([N+](=O)[O-])cc1 (stereo not drawn) | inactive: 2.26%

Structure (SMILES) | activity change, negative = inhibition
Cc1ccc(C(=O)NCC2(N(C)C)CCCCC2)o1 | inactive: 26.9%
CCCCOc1ccccc1C(=O)NCC1(N2CCOCC2)CCCCC1 | inactive: 16%
CCCOc1ccc(C(=O)NCC2(N(C)C)CCCCC2)cc1OC | inactive: 1.88%
O=C(NCC1(N2CCOCC2)CCCCC1)c1ccccc1Br | inactive: 19.4%
O=[N+]([O-])c1cc([N+](=O)[O-])c(Nc2ccc(Cl)cc2)c([N+](=O)[O-])c1 | inactive: 16.4%
O=C(NCC1(N2CCCCC2)CCCCC1)c1ccc(OC(F)F)cc1 | inactive: 6.72%
CSc1ccc(C(=O)NCC2(N3CCOCC3)CCCCC2)cc1 | inactive: 16.8%
CCOc1ccc(C(=O)NCC2(N3CCOCC3)CCCCC2)cc1 | inactive: -0.496%
O=C(NCC1(N2CCCCC2)CCCCC1)c1cccc([N+](=O)[O-])c1 | inactive: 24%
CCN1CCC(Nc2ccc(Cl)cc2)CC1 | inactive: 21.3%
N#CC1(Nc2ccccc2)CCN(CCc2ccccc2)CC1 | inactive: -2.29%
O=c1[nH]c2ccccc2n1C1CCN(C(c2ccccc2OC(F)(F)F)c2nnnn2C2CCCC2)CC1 (stereo not drawn) | inactive: -8.58%
CCCOc1cccc(C(=O)NCC2(N3CCOCC3)CCCCC2)c1 | inactive: 9.27%
O=C(NCC1(N2CCCCC2)CCCCC1)c1cccc(C(F)(F)F)c1 | inactive: -15.2%
O=[N+]([O-])c1cc([N+](=O)[O-])c(NCC2CCS(=O)(=O)C2)c([N+](=O)[O-])c1 (stereo not drawn) | inactive: 1.74%
CN1CCN(CCOC(=O)C(O)(c2ccccc2)c2ccccc2)CC1 | inactive: -2.02%
CC(C)c1ccc(C(=O)NCC2(N3CCOCC3)CCCCC2)cc1 | inactive: -12%
COc1ccc(NC2CCN(C(=O)OC(C)(C)C)CC2)cc1 | inactive: -3.86%
COc1cc(C(=O)NCC2(N3CCCCC3)CCCCC2)ccc1OC(F)F | inactive: 12.4%
O=C(NCC1(N2CCOCC2)CCCCC1)c1cc(=O)[nH]c2ccccc12 | inactive: 6.39%

From PubChem BioAssay AID624415 (National Center for Advancing Translational Sciences (NCATS), 2012)
